Consider 1 sequence from PMC13577091.

The exact form of at least one protein or probe is not confirmed.

The data set has as its system CcpA + HPr-Ser46~P (S46D phosphomimetic). As to the kind of experiment: EMSA. To be noted: HPr-Ser46~P (S46D) added, enhances CcpA binding more than HPr; Beyotime chemiluminescent EMSA kit, 5X binding buffer (composition and pH not stated), 10 ul, room temperature, 10 min then 20 min with labeled probe, 6% acrylamide gel; recombinant protein; label: 5' biotin (reverse primer); probe letters rebuilt from the primers and the genome. (A gel shift assay detects complexes by their altered migration in electrophoresis.)

Consider “TACACATCTGCTTCTAAAATATTGTTAGAAAACGATTTGACTGTCCTGATCAATTTGTCATGTTCTTATTTCATTTTACTATATTTTTGGTTCGCGGGAAGTCTACTAAGATACTTAAAGATGCAGATAGTGAAAAAAGGTGTAGACATTACCGTAAAAAAGTGATATAATCGTAAGATGTTCAATGTATAGGTGTTAATCATGAGTAGACGTTTTAA (double strand) [Pcps promoter probe]”, for which the binding result is listed as “binds”.
